Earlier results in patent US6270957A, “Non-Imuunosuppressive cyclosporins and their use in the prevention and treatment of HIV infection” (Wisconsin Alumni Research Foundation, priority 1999, dated 2001).

Biological target: HIV protease (Human immunodeficiency virus type 1 group M subtype B, UniProt P04585)
Conditions: read-out: Ki against HIV protease; parent inhibitor of another company, for comparison; cited from earlier work

## CC(C)(C)c1ccccc1Sc1c(O)cc(-c2ccccc2)oc1=O
  Ki: 7.3 nM
